Data as given in US20200123233A1.

B1: IV121 (VHH)
VHH: QVQLQESGGGLVQPGGSLRLSCTASRTDISFNPMAWYRQAPGQQRELVASITSGGTTNYANSVKGRFTISRDNPKNTMYLQMNSLKPEDTAVYYCNGRGPRYTTTGWITDDYWGQGTQVTVSS
B2: IV16 (VHH)
VHH: QVQLQESGGGLVQTGGSLRLSCAASGRTFGGYAMAWFRQAPGKGREFVAAVTWSSGTTNYAGSVKDRFTVSRDNGNNTMYLQMNSLKPEDTAVYICGVASGYRSTDRLSEPGWINYWGQGTQVTVSS
B3: IV30 (VHH)
VHH: QVQLQESGGGLVETGGSLRLSCAASGRTFGGYAMAWFRQAPGKGREFVAAVTWTSGTTNYAGSVKDRFTVSRDNANNTMYLQMNSLKPEDTAVYICGAASGYRSPDRLSEPEWINYWGQGTQVTVSS
B4: IV26 (VHH)
VHH: QVQLQESGGGLVRTGDSLRLSCAASGRTFNGYAMAWFRQAPGKGREFVAAVTWSSGTTNYAGSVKDRFTVSRDNANNTMYLQMNSLKPEDTAVYICGAASGYRSTDRLSDPAWTNYWGQGTQVTVSS
B5: IV14 (VHH)
VHH: QVQLQESGGGLVQAGGSLRLSCAASGRTLNNYAMGWFRQAPGAEREFVGAISASGDSTQYTESVQGRFTISKDNAKSTVYLDMNSLKPEDTAVYYCAADRKTLAYYTSRLRSRYDYWGQGTQVTVSS
B6: IV18 (VHH)
VHH: QVQLQQSGGGLVQAGGSLRLSCAASGRTLNNYAMGWFRQAPGAEREFVGAISASGDSTQYTESVQGRFTISKDNAKSTVYLDMNSLKPEDTAVYYCAADRKTLTFYTSRLRSRYDYWGQGTQVTVSS
B7: IV15 (VHH)
VHH: QVQLQQSGGGLVQAGGSLRLSCAASGGTLNNYAMGWFRQAPGAEREFVGAISAGGDSTQYTESVQGRFTISKDNAKSTVYLDMNSLKPEDTAVYYCAADRKTLTYYTSRLRSRYDYWGQGTQVTVSS
B8: IV31 (VHH)
VHH: QVQLQQSGGGLVQAGGSLRLSCAASGRTLNNYAMGWFRQAPGAEREFVGAISASGDSTQYTESVQGRFTISKDNAKSTVVLDMNSLKPEDTAVYYCAADGKTLTFYTSRLRSRYDYWGQGTQVTVSS
B9: IV17 (VHH)
VHH: QVQLQESGGGLVQAGGSLRLSCAASGRTLNNYAMGWFRQAPGAEREFVGAISASGDSTQYTESVQGRFTISKDNAKSTVYLDMNSLKPEDTAVYYCAADRKTLTFYTSRLRSRYDYWGQGTQVTVSS
B10: IV29 (VHH)
VHH: QVQLQESGGGLVQAGGSLRLSCVASGRTLDNYAMGWFRQAPGAEREFVGAISANGEDTQYTESVQGRFTISKDNAKSTVYLDMNSLKPEDTAVYYCAADRKTLTYYTSRLRSRYEYWGQGTQVTVSS
B11: IV24 (VHH)
VHH: QVQLQESGGGLVQTGGSLRLSCAASGRTFGGYAMAWFRQAPGKGREFVAAITWSAGTTNYADSMKDRFTVSRDTANNTMYLEMNRLKPDDTAVYICGAATGYRSTDRLSTPAWINYWGQGTQVTVSS
B12: IV25 (VHH)
VHH: QVQLQQSGGGLVQSGGSLSLSCAASGITLNNRVVGWFRQAPGKEREFVGRIMWSVGDTFYARSVKGRFTISRDNAKNTMYLQMNALKPEDTAVYYCAAARDPDLYTGQYEYWGQGTQVTVSS
B13: IV34 (VHH)
VHH: QVQLQESGGGLVQTGGSLRLSCAASGGTFGGYAMAWFRQAPGKGREFVASVIWNGGTTNYLDSVKDRFTVSRDMANNTMYLQMNSLKPEDTAVYICGAASGYRSTDRLSEPGWVNYWGQGTQVTVSS
B14: IV5 (VHH)
VHH: QVQLQQSGGGLVQAGGSLRLSCAASGRTFSTTGMGWFRQAPGKEREFVAAFWWTGGQTFYADSVKGRFTISGDNAGNTVDLQMNSLKPEDTAVYACAAMSKPRNLWRTDSYDYWGQGTQVTVSS
B15: IV27 (VHH)
VHH: QVQLQESGGGLVQAGGSLRLSCAASGSTFSTYAMGWFRQAPGKEREFVAAFWWTDEQTFYADSVKGRFTISRGNAKNTVDLQMNSLKPEDTAVYACAAMSKPYNLWRTDSYDYWGQGTQVTVSS
B16: IV50 (VHH)
VHH: QVQLQESGGGLVQAGGFLRLSCAASGRSFNTYAMGWFRQAPGKEREFVAGITRSGTATDYADSVKGRFTISRDNARNTVYLQMNRLKPEDSAVYYCAAHASYDRMIYSEYKYWGQGTQVTVSS
B17: IV28 (VHH)
VHH: QVQLQESGGGLVQPGGSLRLSCSASGFAFDDYAMSWVRQAPGKGLEWVSSINWNGGSTYYAESMKGRFTISRDSAKNTLYLQMNSLKSEDTAVYYCAKGEGSANWGLDFGSWGQGTQVTVSS
B18: IV22 (VHH)
VHH: QVQLQESGGGLVQAGDSLRLSCAASGPSFNNGAMSWFRQAPGKEREFVAAIRWSGGGIRYADSVKGRFTISRDNAKNTLYLQMNSLKPEDTAVYYCAIDPRADLVATMTSIRYWGQGTQVTVSS
B19: IV37 (VHH)
VHH: QVQLQESGGGLVQAGDSLRLSCAAPGRSFSGGAMSWFRQVPGKEREFVAAIRWSGGGIRYADSVKGRFTISRDNAKNTFYLQMNSLKPEDTAVYYCAIDPRADLVATMTSIRYWGQGTQVTVSS
B20: IV38 (VHH)
VHH: QVQLQESGGGLVQAGGSLRLSCAASGPSFNNGAMSWFRQAPGKEREFVAAIRWSGGGIRYADSVKGRFTISRDNAKNTLYLQMNSLKPEDTAVYYCAIDPRADLVATMTSIRYWGQGTQVTVSS
B21: IV40 (VHH)
VHH: QVQLQESGGGLVQAGGSLRLSCAASGHTLNNYAMGWFRQGPGAEREFVGAISASGDSTQYTESVQGRFTISKDNAKRTVYLDMNSLKPEDTAVYYCAADGKTLTYYTSRLRSQYDYWGQGTQVTVSS
B22: IV35 (VHH)
VHH: QVQLQESGGGLVQAGGSLRLSCAASGRTLNNYAMGWFRQAPGAEREFVGAISASGDSTDYTESVQGRFTISKDNAKSTVYLDMNSLKPEDTAVYYCAADRKTLTFYTSRLRSRYDYWGQGTQVTVSS
B23: IV36 (VHH)
VHH: QVQLQESGGGLVQAGGSLRLSCAASGRTLNNYAMGWFRQAPGAEREFVGAISASGDSTQYTESVQGRFTISKDYAKSTVYLDMNSLKPEDTAVYYCAADQKTLTYYTSRLRSRYDYWGQGTQVTVSS
B24: IV33 (VHH)
VHH: QVQLQQSGGGLVQAGGSLRLSCAASGRTLNNYAMGWFRQAPGAEREFVGAISASGDSTQYTESVQGRFSISKDLAKSTVYLDMNSLKPEDTAVYYCAADQKTLTFYTSRLRSRYDYWGQGTQVTVSS
B25: IV42 (VHH)
VHH: QVQLQQSGGGLVQAGESLRLSCAASGRTLNNYAMGWFRQAPGAEREFVGAISASGDSTQYTESVQGRFTISKDNAKSTVYLDMNSLKPEDTAVYYCAADRKTLTFYTSRLRSRYDYWGQGTQVTVSS
B26: IV8 (VHH)
VHH: QVQLQESGGGLVQAGGFLRLSCAASGRSFNTYAMGWFRQAPGKEREFVAGITRSGTATDYADSVKGRFTISRDNARNTVYLQMNRLKSEDSAVYYCAAHASYDRMIYSEYKYWGQGTQVTVSS
B27: IV47 (VHH)
VHH: QVQLQQSGGGLVQAGGFLRLSCAASGRSFNTYAMGWFRQAPGKEREFVAGITRSGTATEYADSVKGRFTISRDNARNTVLLQMNRLKPEDSAVYYCAAHANYDRMINSEYKYWGQGTQVTVSS
B28: IV21 (VHH)
VHH: QVQLQQSGGGLVQAGGFLRLSCAASGRSFNTYAMGWFRQAPGKEREFVAGITRSGTATDYIDSVKGRFTISRDNARDTVYLQMNRLNPEDSAVYYCAAHANYDRMINSEYKYWGQGTQVTVSS
B29: IV45 (VHH)
VHH: QVQLQQSGGGLVQAGGFLRLSCAASGRSFNTYAVGWFRQAPGKEREFVAGITRSGTATDYADSVKGRFTISRDNARNTVYLQMNRLKPEDSAVYYCAAHASYDRMINSEYKYWGQGTQVTVSS
B30: IV48 (VHH)
VHH: QVQLQESGGGLVQAGGFLRLTCAASGRSFNTYAMGWFRQAPGKDRKFVAGITRSGTVTDYADSVKGRFTISRDNARNTVYLQMNRLKPEDSAVYYCAGHASYDRMINSEYKYWGQGTQVTVSS
B31: IV23 (VHH)
VHH: QVQLQESGGGLVQAGGFLRLSCAASGRSFNTYAMGWFRQAPGKEREFVAGITRSGTATDYIDSVKGRFTISRDNARDTVYLQMNRLNPEDSAVYYCAAHANYDRMINSEYKYWGQGTQVTVSS

What follows are binders tested against authentic influenza antigen H5N9, strain A/Turkey/Wisconsin/68 (influenza A virus A/Turkey/Wisconsin/68 (H5N9)).

Binder | Extinction at 450 nm in ELISA (extinction at 450 nm)
B1 | 0.099

What follows are binders tested against authentic influenza antigen of strain A/Turkey/Wisconsin/68, serotype H5N9 (influenza A virus A/Turkey/Wisconsin/68 (H5N9)).

Binder | Extinction at 450 nm in ELISA (extinction at 450 nm) | Extinction at 450 nm in ELISA on AIV antigens (extinction at 450 nm)
B2 | 0.045 | 
B3 | 0.053 | 
B4 | 0.097 | 
B5 | 0.048 | 
B6 | 0.098 | 
B7 | 0.05 | 
B8 | 0.049 | 
B9 | 0.046 | 
B10 | 0.048 | 
B11 | 0.047 | 
B12 |  | 0.047
B13 | 0.079 | 
B14 |  | 0.049
B15 |  | 0.048
B16 |  | 0.049
B17 |  | 0.047
B18 |  | 0.053
B19 |  | 0.048
B20 |  | 0.047

Each binder was assayed against authentic influenza antigen of A/Turkey/Wisconsin/68, serotype H5N9 (influenza A virus A/Turkey/Wisconsin/68 (H5N9)).

Binder | Extinction at 450 nm in ELISA (extinction at 450 nm)
B21 | 0.047
B22 | 0.047
B23 | 0.047
B24 | 0.047
B25 | 0.048
B26 | 0.045
B27 | 0.05
B28 | 0.05
B29 | 0.047
B30 | 0.048
B31 | 0.046
